The results in this text go back to article PMC9481026 (PLoS ONE, 2022).

This series can be described thus: in vitro. Conditions: human.

Compound `Cc1cc(O)c(=O)c(O)cc1S(=O)(=O)c1ccccc1` [Compound 336] showed a CC50 of 45.4 µM.
